Pooled drug test results. Numbers come from NIAID ChemDB, via PubChem.

Shared fields: tests in culture

Neighbouring rows are from separate reports. MIC50, MIC90 and the like: level of inhibition, or share of isolates inhibited. ECn is the concentration giving n% inhibition of infection, replication or growth. Percent inhibition refers to the dose given; in toxicity tests it is the harm to the cells. An empty or dashed field is not shown.

{"SMILES": "NC[C@@H]1O[C@H](O[C@H]2[C@@H](O)[C@H](O[C@@H]3[C@@H](O)[C@H](N)C[C@H](N)[C@H]3O[C@H]3O[C@H](CO)[C@@H](O)[C@H](O)[C@H]3N)O[C@@H]2CO)[C@H](N)[C@@H](O)[C@@H]1O", "cell line": "MDCK", "read by": "luminescence", "agent": "Cryptosporidium parvum", "endpoint": "EC50", "strain": "IOWA", "result": "1184 µg/mL"}
{"SMILES": "CCOC(=O)c1c(C)nc(NCCCCNc2ccnc3cc(Cl)ccc23)nc1-c1ccc(F)cc1", "agent": "Cryptococcus neoformans", "endpoint": "MIC99", "strain": "WP", "result": "8 µg/mL"}
{"SMILES": "NCCCC[C@H](NC(=O)[C@H](Cc1c[nH]c2ccccc12)NC(=O)[C@H](CCCCN)NC(=O)[C@@H](N)CCCCN)C(=O)O", "agent": "Cryptococcus neoformans", "endpoint": "inhibition", "strain": "ATCC 32264", "dose": "12.5 µM", "result": "0%"}
{"SMILES": "Cn1nc(Cc2ccc(Cl)cc2)c2ccccc2c1=O", "read by": "broth dilution", "agent": "Cryptococcus neoformans", "endpoint": "MIC", "strain": "Clinical isolate (IM 031633)", "result": "15.6 µg/mL"}
{"SMILES": "NC[C@@H]1O[C@H](O[C@H]2[C@@H](O)[C@H](O[C@@H]3[C@@H](O)[C@H](N)C[C@H](N)[C@H]3O[C@H]3O[C@H](CO)[C@@H](O)[C@H](O)[C@H]3N)O[C@@H]2CO)[C@H](N)[C@@H](O)[C@@H]1O", "cell line": "MDBK", "read by": "cell count", "agent": "Cryptosporidium parvum", "endpoint": "EC50", "result": "<500 µg/mL"}
{"SMILES": "NC[C@@H]1O[C@H](O[C@H]2[C@@H](O)[C@H](O[C@@H]3[C@@H](O)[C@H](N)C[C@H](N)[C@H]3O[C@H]3O[C@H](CO)[C@@H](O)[C@H](O)[C@H]3N)O[C@@H]2CO)[C@H](N)[C@@H](O)[C@@H]1O", "agent": "Cryptosporidium parvum", "endpoint": "inhibition", "dose": "25 µM", "result": "<10%"}
{"SMILES": "CN[C@H]1CC[C@@H](c2ccc(Cl)c(Cl)c2)c2ccccc21", "read by": "broth dilution", "agent": "Cryptococcus neoformans", "endpoint": "MFC", "strain": "C45", "result": "6 µg/mL"}
{"SMILES": "Cn1ncc2c1C(=O)c1c(Cl)ccc(O)c1C2=O", "agent": "Cryptosporidium parvum", "endpoint": "inhibition", "dose": "50 µM", "result": "99%"}
{"SMILES": "Oc1ccccc1N=Cc1ccc(F)cc1", "agent": "Cryptococcus neoformans", "endpoint": "MIC99", "strain": "ATCC 62066", "result": "1.4 µg/mL"}
{"SMILES": "C[C@@H](c1ncncc1F)[C@](O)(Cn1cncn1)c1ccc(F)cc1F", "read by": "broth dilution", "agent": "Cryptococcus gattii", "endpoint": "MIC50", "result": "0.125 µg/mL"}
{"SMILES": "C[C@@H](c1ncncc1F)[C@](O)(Cn1cncn1)c1ccc(F)cc1F", "read by": "broth dilution", "agent": "Cryptococcus gattii", "endpoint": "MIC", "strain": "CBS 10865", "result": "0.008 µg/mL"}
{"SMILES": "Oc1cccc(C=Nc2ccccc2O)c1", "agent": "Cryptococcus neoformans", "endpoint": "MIC99", "strain": "WP", "result": "4 µg/mL"}
{"SMILES": "O=C1c2cccc(Cl)c2C(=O)c2cn[nH]c21", "agent": "Cryptosporidium parvum", "endpoint": "inhibition", "dose": "100 µM", "result": "100%"}
{"SMILES": "C[C@@H](c1ncncc1F)[C@](O)(Cn1cncn1)c1ccc(F)cc1F", "read by": "broth dilution", "agent": "Cryptococcus neoformans", "endpoint": "MIC", "strain": "Clinical isolate (IM 983036)", "result": "<0.015 µg/mL"}
{"SMILES": "Oc1ccc(O)c(C=Nc2ccccc2O)c1", "agent": "Cryptococcus neoformans", "endpoint": "MIC99", "strain": "F-10", "result": "11.3 µg/mL"}
{"SMILES": "Cn1ncc2c1C(=O)c1cccc(O)c1C2=O", "agent": "Cryptosporidium parvum", "endpoint": "inhibition", "dose": "10 µM", "result": "32%"}

For reference, 2 entries again:

SMILES | cell line | read by | agent | endpoint | strain | dose | result
C[C@@H](c1ncncc1F)[C@](O)(Cn1cncn1)c1ccc(F)cc1F |  | broth dilution | Cryptococcus neoformans | MIC | Clinical isolate (IM 983036) |  | <0.015 µg/mL
NCCCC[C@H](NC(=O)[C@H](Cc1c[nH]c2ccccc12)NC(=O)[C@H](CCCCN)NC(=O)[C@@H](N)CCCCN)C(=O)O |  |  | Cryptococcus neoformans | inhibition | ATCC 32264 | 12.5 µM | 0%